The list shows a part of the results, in another mix than the full data. Calls of active or inactive are those of the source. Calls follow the shape of the dose curve; as a rule, active = well fitted inhibition curve with a large enough effect; inconclusive = small, poorly fitted or top-dose-only effect, or effect the other way; inactive = flat fitted curve, though single readings scatter.
The compounds below were run against ATP-dependent 6-phosphofructokinase (Trypanosoma brucei brucei) (UniProt O15648) (assay: qHTS Assay to Find Inhibitors of T. brucei phosphofructokinase). Details: T. brucei PFK, ADP-Glo luminescence; at 57.5 µM (top of the series).
Text: NIH Molecular Libraries Probe Production Network [MLPCN] NIH Chemical Genomics Center [NCGC] Grant: 1 R03 MH092153-01 PI Name: Malcolm Walkinshaw, University of Edinburgh NCGC Assay Overview: Various species of the protozoan family Trypanosomatidae are responsible for a range of serious human diseases in tropical and subtropical areas of the world. […] Many of the disorders caused by trypanosomatids are fatal if left untreated, but most currently used drugs are inefficient and toxic. […] A luminescence-based assay for T. brucei PFK activity has been developed which uses luciferase to detect production of ADP. […] To directly measure the ADP product of the PFK reaction, we used the ADP-Glo detection kit (Promega), which utilizes two separate reactions to 1) deplete all remaining uncatalyzed ATP and 2) convert all remaining ADP to ATP, which is then detected through a traditional luciferase-coupled reaction. […]
NCGC Assay Protocol Summary: NCGC Assay Protocol Summary: Substrate buffer was dispensed into white, solid 1536-well plates at 3uL/well in 0.1M triethanolamine (TEA) buffer, pH 8.0, containing final concentrations of 5 mM MgCl2, 0.01% Tween20, 0.5 mM fructose-6-phosphate (F6P) and 0.1mM ATP. […] The plates were measured on a ViewLux plate reader for luminescent signal using a clear filter with a one second exposure. The %Activity was determined from the corrected luminescence values. […]
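Also: 0% = uninhibited 1x PFK enzyme wells and -100% = no-enzyme wells; nearly all actives have a fitted effect of over 60% in size.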

Amino acid sequences for entries named in this document (tags omitted).
UniProt O15648, whole entry: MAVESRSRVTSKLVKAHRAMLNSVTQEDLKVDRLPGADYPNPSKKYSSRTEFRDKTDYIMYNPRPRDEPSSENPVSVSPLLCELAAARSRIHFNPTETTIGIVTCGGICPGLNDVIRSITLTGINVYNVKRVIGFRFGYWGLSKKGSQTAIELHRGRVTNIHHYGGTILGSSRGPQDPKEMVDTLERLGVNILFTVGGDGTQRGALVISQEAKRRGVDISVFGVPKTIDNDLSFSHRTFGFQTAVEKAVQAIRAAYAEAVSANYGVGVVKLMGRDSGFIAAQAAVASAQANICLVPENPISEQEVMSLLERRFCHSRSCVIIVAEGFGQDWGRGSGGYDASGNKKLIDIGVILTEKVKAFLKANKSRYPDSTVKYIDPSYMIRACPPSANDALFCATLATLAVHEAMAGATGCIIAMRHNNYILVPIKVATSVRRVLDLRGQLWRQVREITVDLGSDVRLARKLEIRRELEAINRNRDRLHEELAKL

| Structure (SMILES) | activity, negative = inhibition |
| --- | --- |
| Cc1ccccc1NP(C)(=O)Nc1ccccc1C | inactive: -11.4% |

Source: PubChem BioAssay AID485367 (National Center for Advancing Translational Sciences (NCATS), 2010)
